Test results reported in paper PMC7235863, “Benzamide Derivatives Targeting the Cell Division Protein FtsZ: Modifications of the Linker and the Benzodioxane Scaffold and Their Effects on Antimicrobial Activity” (Antibiotics, 2020).

Experiments:
MSSA ATCC 29213 = assay: MIC/MBC determination in LB broth, MSSA; type: cell-based, Staphylococcus aureus; details: ratio between TD90 (MRC-5) and MBC
Method: (§1) Normal human lung fibroblasts (MRC-5) were grown in Dulbecco’s modified Eagle’s medium (DMEM) supplemented with 10% calf serum, 100 U/mL penicillin and […] streptomycin in an incubator at 5% CO2 atmosphere and 37 °C. The Gram-positive Staphylococcus aureus (methicillin-sensitive, MSSA ATCC 29213, and methicillin-resistant, MRSA ATCC 43300) and the Gram-negative Escherichia coli (ESBL, extended-spectrum beta-lactamase-positive) bacterial cells were grown in Luria-Bertani broth (LB) at 37 °C under constant shaking at 300 rpm.
(§2) The antibacterial activity was tested on both a methicillin-sensitive and a methicillin-resistant S. aureus strain, and an ESBL E. coli clinical isolate. All the compounds were dissolved at the final concentration of 20 mg/mL in dimethyl sulfoxide (DMSO) and serially diluted in LB. Fresh cell cultures were used at 10^5 cells/mL in a final volume of 2 mL. Each bacterial sample was grown with different compound concentrations that ranged from 100 to 0.1 μg/mL. […] To determine the MBC, the bacteria were then washed three times with LB, centrifuged at 900× g for 10 min at 4 °C, and the pellet resuspended in fresh LB. After overnight incubation at 37 °C, the absence of growth was confirmed by OD measurement. The presence of antibacterial activity, at any concentration tested, was established for values of absorbance < 0.1 OD600. All tests were performed in quadruplicate and for each series of experiments, both positive (no compounds) and negative (no bacteria) controls were included.

MRSA ATCC 43300 = assay: MIC/MBC determination in LB broth, MRSA; type: cell-based, Staphylococcus aureus; details: ratio between TD90 (MRC-5) and MBC
Method: as §1, §2

NC(=O)c1c(F)ccc(OCCC2COc3ccccc3O2)c1F (centres unmarked) [Compound 7]
TI90 (MSSA ATCC 29213): 76
TI90 (MRSA ATCC 43300): 76

3-(1,4-benzoxathiane-2-yl)-2,6-difluorobenzamide [Compound 1]
TI90 (MSSA ATCC 29213): >800
TI90 (MRSA ATCC 43300): >800

3-(1,4-benzoxathiane-3-yl)-2,6-difluorobenzamide [Compound 3]
TI90 (MSSA ATCC 29213): 10
TI90 (MRSA ATCC 43300): 10

3-(1,4-benzodithiane-2-yl)-2,6-difluorobenzamide [Compound 5]
TI90 (MSSA ATCC 29213): 20
TI90 (MRSA ATCC 43300): 20
